Compound potency records, mixed from different reports. Data source: NIAID ChemDB in PubChem.

Common to all: cytotoxicity tests; cells: HepG2; endpoint: CC50

Two numbers with a dash give a range or band. Rows are shuffled and stem from different studies. An empty or dashed field is not shown. CCn: concentration that lowers growth or viability of the cells by n%.

| structure | read by | value |
|---|---|---|
| COc1cc(OC)cc(-c2ccc(C(=O)N(Cc3cccc(OCCCCCC(=O)OC(=O)O)c3)C(C)C)cc2)c1 | - | >20 µM |
| C[C@H]1C[C@@H]1NC(=O)c1cc2sc(C3CC3)nc2s1 | fluorescence | >100 µM |
| O=C(c1ccccc1)N1c2ccccc2Sc2ccccc21 | resazurin | >32 µg/mL |
| Cc1ccc(NC(=O)c2cc3sc(N4CCN(C5COC5)[C@H](C)C4)nc3s2)nc1 | fluorescence | >100 µM |
| Cc1cc(NC(=O)c2c(C)c(C(=O)C(=O)NCC(C)(C)O)n(C)c2C2CC2)ccc1F | MTT | 5–30 µM |
| Nc1ncnc2c1c(I)cn2[C@@H]1O[C@H](CO)[C@@H](O)C1(F)F | XTT | 0.35 µM |
| C/C=C/C=C/c1nc2cc(OC)ccc2n2cccc12 | MTT / absorbance | 5.8 µM |
| CC(C)C[C@@H]1NC(=O)[C@@H](CC(C)C)NC(=O)[C@H](Cc2c[nH]c3ccccc23)NC(=O)CNC(=O)[C@H](CC(N)=O)NC(=O)[C@@H](C(C)C)NC1=O | MTT | >30 µM |
| CCOC(=O)CC(=O)NCCc1ccc(OC)c(OC)c1 | - | <7.5 µM |
| C[C@H]1C[C@@H]1NC(=O)c1cc2sc(OC3CC(N4CCOCC4)C3)nc2s1 | fluorescence | >100 µM |
| C/C=C/C=C/c1nc2cccc(OC)c2n2cccc12 | MTT / absorbance | 6.5 µM |
| CC(C)C[C@@H]1NC(=O)[C@H](Cc2c[nH]c3ccccc23)NC(=O)C(C)(C)NC(=O)[C@H](CCCCN)NC(=O)[C@H](C(C)C)NC(=O)[C@@H](CC(C)C)NC1=O | MTT | >30 µM |
| Nc1ncnc2c1c(-c1ccsc1)cn2[C@H]1O[C@H](CO)[C@@H](O)C1(F)F | XTT | >10 µM |
| Cc1c(C(=O)Nc2ccc(F)c(F)c2)c2n(c1C(=O)C(=O)NC1(C)CCN(C(=O)Nc3ccc(F)c(F)c3)CC1)CCCC2 | MTT | 0.5–4.99 µM |
| CNC(=O)c1ccc(-n2c(NC(C)C)nc3c(c2=O)C[C@@H](C)N(C(=O)c2ccc(Cl)c(C(F)(F)F)c2Cl)C3)cc1 | luminescence | >50 µM |
| CC(C)C[C@@H]1NC(=O)[C@H](Cc2c[nH]c3ccccc23)NC(=O)[C@@H](CC(C)C)NC(=O)[C@H](CCCCN)NC(=O)[C@H](C(C)C)NC(=O)[C@@H](CC(C)C)NC1=O | MTT | >30 µM |
| COc1ccc(F)cc1CNCCCNc1ccnc2cc(Oc3ccc(F)cc3)ccc12 | fluorescence | 6.6 µM |
| c1ccc(N2c3ccccc3Sc3ccccc32)cc1 | resazurin | >32 µg/mL |
| CNC(=O)c1ccc(-n2c(NC(C)C)nc3c(c2=O)C[C@@H](C)N(C(=O)c2ccc(Cl)c(C(F)(F)F)c2)C3)cc1 | luminescence | >50 µM |
| C/C=C/C=C/C=C/c1nc2ccccc2n2cccc12 | MTT / absorbance | 10.6 µM |
| COCCCN1c2ccccc2Sc2ccccc21 | resazurin | >32 µg/mL |
| CNC(=O)c1coc(-n2c(NC(C)C)nc3c(c2=O)C[C@@H](C)N(C(=O)c2ccc(Cl)c(C(F)(F)F)c2)C3)n1 | luminescence | >50 µM |
| CN(C)CCCN1c2ccccc2Sc2ccc(Cl)cc21 | resazurin | 8 µg/mL |
| Cc1ccc(F)c(NC(=O)c2c(C)c(C(=O)C(=O)NC(C)(C)C)n(C)c2C)c1 | MTT | >30 µM |
| CCCN(Cc1cccc(OCCCCCC(=O)OCC)c1)C(=O)c1ccc(Br)cc1 | - | >20 µM |
| COc1ccc(F)cc1CNCCCNc1ccnc2cc(-c3ccc(C(C)(C)C)cc3)ccc12 | fluorescence | 0.62 µM |
| Cc1c(C(=O)Nc2ccc(F)c(C#N)c2)c(C)n(C)c1C(=O)C(=O)NC1(C)CCC(O)CC1 | MTT | >30 µM |
| CNC(=O)CCCC(=O)N[C@@H](CC(C)C)C(=O)N[C@@H](CC(C)C)C(=O)NCC(=O)CNC(=O)[C@H](CC(C)C)NC(=O)[C@H](CC(C)C)NC(=O)c1ccc(C(=O)c2ccccc2)cc1 | - | >10 µM |
| C[C@@H]1CN(c2nc3sc(C(=O)N[C@H]4C[C@@H]4C)cc3s2)CCN1C(=O)C1CC1 | fluorescence | >100 µM |
| Nc1ncnc2c1c(-c1ccco1)cn2[C@H]1O[C@H](CO)[C@@H](O)C1(F)F | XTT | >10 µM |
| Cc1c2c(c(C(=O)Nc3ccc(F)c(F)c3)n1C)CCC(C)NC2=O | MTT | >30 µM |
| CC(C)C[C@@H]1NC(=O)[C@H](Cc2c[nH]c3ccccc23)NC(=O)[C@H](CCCCN)NC(=O)[C@H](CC(N)=O)NC(=O)[C@H](C(C)C)NC(=O)[C@@H](CC(C)C)NC1=O | MTT | >30 µM |
| CN(C)c1cccc(Oc2ccc3c(NCCCNCc4ccco4)ccnc3c2)c1 | fluorescence | 16 µM |
| CNC(=O)CCCn1c(NC(C)C)nc2c(c1=O)C[C@@H](C)N(C(=O)c1ccc(Br)c(C(F)(F)F)c1)C2 | luminescence | 30 µM |
| c1ccc(-c2ccc3c(NCCCNCc4ccco4)ccnc3c2)cc1 | fluorescence | 5.92 µM |
| Cc1cc(NC(=O)c2c3c(n(C)c2C)C(=O)NC(C)CC3)ccc1F | MTT | >30 µM |
| COC(=O)N1CCN(c2nc3sc(C(=O)N[C@H]4C[C@@H]4C)cc3s2)C[C@H]1C | fluorescence | >100 µM |
| CC(C)C[C@@H]1NC(=O)[C@H](Cc2c[nH]c3ccccc23)NC(=O)[C@@H](CCCN=C(N)N)NC(=O)[C@H](CC(N)=O)NC(=O)[C@H](C(C)C)NC(=O)[C@@H](CC(C)C)NC1=O | MTT | >30 µM |
| CC(C)N(Cc1cccc(OCCCCCC(=O)OC(=O)O)c1)C(=O)c1ccc(-c2cccc(O)c2)cc1 | - | >20 µM |
| COc1cccc(Oc2ccc3c(NCCCNCc4cccc(OC)c4O)ccnc3c2)c1 | fluorescence | 5.3 µM |
| CCOC(=O)CCCCOc1ccccc1C=O | - | >20 µM |
| Nc1ncnc2c1c(-c1ccccc1)cn2[C@H]1O[C@H](CO)[C@@H](O)C1(F)F | XTT | >10 µM |
| CC(C)C[C@@H]1NC(=O)[C@H](Cc2c[nH]c3ccccc23)NC(=O)[C@@H](CCCCN)NC(=O)[C@H](CC(N)=O)NC(=O)[C@H](CC(C)C)NC(=O)[C@@H](CC(C)C)NC1=O | MTT | >30 µM |
| OCCCN1c2ccccc2Sc2ccccc21 | resazurin | 24 µg/mL |
| C[C@H]1C[C@@H]1NC(=O)c1cc2sc(N3CCC(N4CCOCC4)CC3)nc2s1 | fluorescence | >100 µM |
| CC(C)C[C@@H]1NC(=O)[C@H](Cc2c[nH]c3ccccc23)NC(=O)CNC(=O)[C@H](CC(N)=O)NC(=O)[C@H](C(C)C)NC(=O)[C@H](CC(C)C)NC1=O | MTT | >30 µM |
| CCc1c(C(=O)Nc2ccc(F)c(C)c2)c(C)n(C)c1C(=O)C(=O)NC1CCC(O)CC1 | MTT | >30 µM |
| CCOC(=O)CCCCCOc1cccc(CN(C(=O)c2ccc(-c3cccc(O)c3)cc2)C(C)C)c1 | - | >20 µM |
| Cc1cc(NC(=O)c2c(C)c(C(=O)C(=O)NC3CCC(S(C)(=O)=O)CC3)n(C)c2-c2ccsc2)ccc1F | MTT | >30 µM |
| C[C@H](NC(=O)[C@@H](O)C1CCCCC1)C(=O)N[C@@H]1C(=O)N(C)c2ccccc2-c2ccccc21 | - | >10 µM |
| COc1ccc(C)cc1OCCBr | - | >20 µM |
| Cc1c(C(=O)Nc2ccc(F)c(F)c2)c2c(n1C)C(=O)NC(C)(C)CC2 | MTT | 5–30 µM |
| CNC(=O)c1c(Cl)c(-n2c([C@@H](O)C(C)C)nc3c(c2=O)C[C@@H](C)N(C(=O)c2ccc(Br)c(C(F)(F)F)c2)C3)nn1C | luminescence | >50 µM |
| CCC/C=C/C=C/c1nc2ccc(OC)cc2n2cccc12 | MTT / absorbance | 20.1 µM |
| CC(C)NC(=O)C1CCC(n2c(NC(C)C)nc3c(c2=O)C[C@@H](C)N(C(=O)c2ccc(Cl)c(C(F)(F)F)c2)C3)CC1 | luminescence | >50 µM |
| CCC(C)[C@@H]1NC(=O)[C@@H](C(C)C)NC(=O)[C@H](CC(C)C)NC(=O)[C@H](Cc2c[nH]c3ccccc23)NC(=O)CNC(=O)[C@H](CC(N)=O)NC1=O | MTT | >30 µM |